Values after ≈ are worked out from the molar mass of the structure shown.
Columns and labels:
Assay in all cases: agar serial dilution test, MIC
Details in all cases: 24 hours at 37°C
Proteus mirabilis L 93 = tested on: Proteus mirabilis L 93
Shigella equirulis T 3 = tested on: Shigella equirulis T 3
Proteus morganii 2241 = type: cell-based
Escherichia coli U 20 = type: cell-based
Salmonella dublin P 43 = type: cell-based
[1] = tested on: Pseudomonas aeruginosa 2396; type: cell-based
[2] = tested on: Salmonella typhimurium R172; type: cell-based
Proteus mirabilis A 1200 = type: cell-based
[3] = tested on: Streptococcus haemolyticus A 266; type: cell-based
[4] = tested on: Pseudomonas aeruginosa H 10; type: cell-based
[5] = tested on: Staphylococcus aureus A 2001; type: cell-based
[6] = tested on: Pseudomonas aeruginosa Wyeth A 1058; type: cell-based
[7] = tested on: Staphylococcus aureus A 321; type: cell-based
[8] = tested on: Diplococcus pneumoniae L 54; type: cell-based
Proteus mirabilis H 3 = type: cell-based
[9] = tested on: Klebsiella pneumoniae A 809; type: cell-based
Proteus rettgeri A 821 = type: cell-based
[10] = tested on: Streptococcus faecalis L 80; type: cell-based
[11] = tested on: Brucella melitensis A 488
[12] = tested on: Pasteurella multocida A 723; type: cell-based
[13] = tested on: Staphylococcus aureus A 355'; type: cell-based
[14] = tested on: Staphylococcus aureus A 2000; type: cell-based
[15] = tested on: Salmonella typhimurium R 127; type: cell-based

## CCOP(=O)(NC(=O)N[C@@H](C(=O)N[C@@H]1C(=O)N2C(C(=O)O)=C(C)CS[C@H]12)c1ccccc1)OCC
Proteus mirabilis L 93
  MIC: 100 µg/mL (≈ 190 µM)
Shigella equirulis T 3
  MIC: 25 µg/mL (≈ 47.5 µM)
Proteus morganii 2241
  MIC: > 100 µg/mL
Escherichia coli U 20
  MIC: 100 µg/mL (≈ 190 µM)
Salmonella dublin P 43
  MIC: 100 µg/mL (≈ 190 µM)
[1]
  MIC: > 100 µg/mL
[2]
  MIC: 100 µg/mL (≈ 190 µM)
Proteus mirabilis A 1200
  MIC: > 100 µg/mL
[3]
  MIC: 1.5 µg/mL (≈ 2.85 µM)
[4]
  MIC: > 100 µg/mL
[5]
  MIC: 6 µg/mL (≈ 11.4 µM)
[6]
  MIC: > 100 µg/mL
[7]
  MIC: 6 µg/mL (≈ 11.4 µM)
[8]
  MIC: 25 µg/mL (≈ 47.5 µM)
Proteus mirabilis H 3
  MIC: > 100 µg/mL
[9]
  MIC: 25 µg/mL (≈ 47.5 µM)
Proteus rettgeri A 821
  MIC: 50 µg/mL (≈ 95 µM)
[10]
  MIC: > 100 µg/mL

## CCOP(=O)(NC(=O)Nc1ccccc1)N[C@@H](C(=O)N[C@@H]1C(=O)N2[C@@H]1SC(C)(C)[C@@H]2C(=O)O)c1ccccc1 (stereo partly drawn)
Proteus mirabilis L 93
  MIC: 6 µg/mL (≈ 10.4 µM)
[11]
  MIC: 3 µg/mL (≈ 5.21 µM)
Proteus morganii 2241
  MIC: 50 µg/mL (≈ 86.9 µM)
Escherichia coli U 20
  MIC: > 100 µg/mL
[12]
  MIC: 1.5 µg/mL (≈ 2.61 µM)
Salmonella dublin P 43
  MIC: 50 µg/mL (≈ 86.9 µM)
[1]
  MIC: 50 µg/mL (≈ 86.9 µM)
[13]
  MIC: 6 µg/mL (≈ 10.4 µM)
[2]
  MIC: > 100 µg/mL
Proteus mirabilis A 1200
  MIC: 25 µg/mL (≈ 43.4 µM)
[3]
  MIC: 0.12 µg/mL (≈ 0.208 µM)
[4]
  MIC: > 100 µg/mL
[14]
  MIC: 6 µg/mL (≈ 10.4 µM)
[5]
  MIC: 3 µg/mL (≈ 5.21 µM)
[6]
  MIC: 50 µg/mL (≈ 86.9 µM)
[7]
  MIC: 1.5 µg/mL (≈ 2.61 µM)
[8]
  MIC: 0.5 µg/mL (≈ 0.869 µM)
Proteus mirabilis H 3
  MIC: 50 µg/mL (≈ 86.9 µM)
[9]
  MIC: > 100 µg/mL
Proteus rettgeri A 821
  MIC: 1.5 µg/mL (≈ 2.61 µM)

## CCOP(=S)(NC(=O)N[C@@H](C(=O)N[C@@H]1C(=O)N2C(C(=O)O)=C(C)CS[C@H]12)c1ccccc1)OCC
Proteus mirabilis L 93
  MIC: > 100 µg/mL
Shigella equirulis T 3
  MIC: 100 µg/mL (≈ 184 µM)
[11]
  MIC: 100 µg/mL (≈ 184 µM)
Proteus morganii 2241
  MIC: > 100 µg/mL
Escherichia coli U 20
  MIC: > 100 µg/mL
[12]
  MIC: 25 µg/mL (≈ 46.1 µM)
Salmonella dublin P 43
  MIC: 50 µg/mL (≈ 92.2 µM)
[1]
  MIC: > 100 µg/mL
[2]
  MIC: 100 µg/mL (≈ 184 µM)
Proteus mirabilis A 1200
  MIC: > 100 µg/mL
[3]
  MIC: 1 µg/mL (≈ 1.84 µM)
[4]
  MIC: > 100 µg/mL
[6]
  MIC: > 100 µg/mL
[8]
  MIC: 6 µg/mL (≈ 11.1 µM)
Proteus mirabilis H 3
  MIC: > 100 µg/mL
[9]
  MIC: 50 µg/mL (≈ 92.2 µM)
Proteus rettgeri A 821
  MIC: 25 µg/mL (≈ 46.1 µM)
[10]
  MIC: > 100 µg/mL

## CCOP(=O)(NC(=O)N[C@@H](C(=O)N[C@@H]1C(=O)N2[C@@H]1SC(C)(C)[C@@H]2C(=O)O)c1ccccc1)Nc1ccccc1 (stereo partly drawn)
Proteus mirabilis L 93
  MIC: 6 µg/mL (≈ 10.4 µM)
Shigella equirulis T 3
  MIC: 3 µg/mL (≈ 5.21 µM)
[11]
  MIC: 1.5 µg/mL (≈ 2.61 µM)
Proteus morganii 2241
  MIC: 50 µg/mL (≈ 86.9 µM)
Escherichia coli U 20
  MIC: 25 µg/mL (≈ 43.4 µM)
[12]
  MIC: 3 µg/mL (≈ 5.21 µM)
[1]
  MIC: 25 µg/mL (≈ 43.4 µM)
[13]
  MIC: 6 µg/mL (≈ 10.4 µM)
[2]
  MIC: 25 µg/mL (≈ 43.4 µM)
[3]
  MIC: 0.06 µg/mL (≈ 0.104 µM)
[4]
  MIC: 100 µg/mL (≈ 174 µM)
[14]
  MIC: 3 µg/mL (≈ 5.21 µM)
[5]
  MIC: 3 µg/mL (≈ 5.21 µM)
[6]
  MIC: 25 µg/mL (≈ 43.4 µM)
[7]
  MIC: 0.5 µg/mL (≈ 0.869 µM)
[8]
  MIC: 0.5 µg/mL (≈ 0.869 µM)
Proteus mirabilis H 3
  MIC: 25 µg/mL (≈ 43.4 µM)
[9]
  MIC: 25 µg/mL (≈ 43.4 µM)
Proteus rettgeri A 821
  MIC: 3 µg/mL (≈ 5.21 µM)
[10]
  MIC: 6 µg/mL (≈ 10.4 µM)

## CCOC(=O)NNP(=O)(NC(=O)N[C@@H](C(=O)N[C@@H]1C(=O)N2[C@@H]1SC(C)(C)[C@@H]2C(=O)O)c1ccccc1)OCC (stereo partly drawn)
Proteus mirabilis L 93
  MIC: 1.5 µg/mL (≈ 2.56 µM)
Shigella equirulis T 3
  MIC: 1.5 µg/mL (≈ 2.56 µM)
[11]
  MIC: 0.5 µg/mL (≈ 0.852 µM)
Proteus morganii 2241
  MIC: 50 µg/mL (≈ 85.2 µM)
Escherichia coli U 20
  MIC: 25 µg/mL (≈ 42.6 µM)
[12]
  MIC: 0.75 µg/mL (≈ 1.28 µM)
Salmonella dublin P 43
  MIC: 6 µg/mL (≈ 10.2 µM)
[1]
  MIC: 25 µg/mL (≈ 42.6 µM)
[13]
  MIC: 6 µg/mL (≈ 10.2 µM)
Proteus mirabilis A 1200
  MIC: 3 µg/mL (≈ 5.11 µM)
[3]
  MIC: 0.06 µg/mL (≈ 0.102 µM)
[4]
  MIC: > 100 µg/mL
[14]
  MIC: 6 µg/mL (≈ 10.2 µM)
[5]
  MIC: 3 µg/mL (≈ 5.11 µM)
[6]
  MIC: 25 µg/mL (≈ 42.6 µM)
[7]
  MIC: 0.5 µg/mL (≈ 0.852 µM)
[8]
  MIC: 0.5 µg/mL (≈ 0.852 µM)
Proteus mirabilis H 3
  MIC: 6 µg/mL (≈ 10.2 µM)
[9]
  MIC: > 100 µg/mL
[10]
  MIC: 3 µg/mL (≈ 5.11 µM)

## CC1(C)S[C@@H]2[C@H](NC(=O)[C@H](NC(=O)NP(=S)(Oc3ccccc3)Oc3ccccc3)c3ccccc3)C(=O)N2[C@H]1C(=O)O
Proteus mirabilis L 93
  MIC: 6 µg/mL (≈ 9.37 µM)
Shigella equirulis T 3
  MIC: 3 µg/mL (≈ 4.68 µM)
Proteus morganii 2241
  MIC: 25 µg/mL (≈ 39 µM)
Escherichia coli U 20
  MIC: 25 µg/mL (≈ 39 µM)
[12]
  MIC: 3 µg/mL (≈ 4.68 µM)
[15]
  MIC: 50 µg/mL (≈ 78 µM)
[1]
  MIC: 25 µg/mL (≈ 39 µM)
[13]
  MIC: 25 µg/mL (≈ 39 µM)
[4]
  MIC: 100 µg/mL (≈ 156 µM)
[14]
  MIC: 3 µg/mL (≈ 4.68 µM)
[5]
  MIC: 1 µg/mL (≈ 1.56 µM)
[6]
  MIC: 25 µg/mL (≈ 39 µM)
[7]
  MIC: 0.25 µg/mL (≈ 0.39 µM)
[8]
  MIC: 0.25 µg/mL (≈ 0.39 µM)
[10]
  MIC: 1.5 µg/mL (≈ 2.34 µM)

— patent publication US3945994A, “Novel acid compounds” (Gist-Brocades N.V., priority 1973, dated 1976)
